From ChEMBL document CHEMBL4118082 (Eur J Med Chem, 2017)

Key:
[1] = tested on: Mycobacterium tuberculosis variant bovis; experiment: Antimycobacterial activity against Mycobacterium bovis AN5 harboring pSMT1 carrying luxAB gene after 6 days by luminescence based serial dilution method
[2] = Therapeutic index, ratio of CC50 for human MRC5 cells to MIC90 for Mycobacterium tuberculosis H37Ra Lehmann and Neumann ATCC 25177 harboring pSMT1 luciferase reporter

SMILES | MIC90 [1] [µM] | TI [2]
O=c1[nH]c2c(O)cccc2c(O)c1-c1ccccc1 | 9.9 (≈ 2.51 µg/mL) | 10.1
COc1ccc2c(O)c(-c3ccccc3)c(=O)[nH]c2c1 | 9.5 (≈ 2.54 µg/mL) | 6.5
Cc1c(O)c2ccccc2[nH]c1=O | 9.5 (≈ 1.66 µg/mL) | 12.5
O=c1[nH]c2ccc(F)cc2c(O)c1-c1ccccc1 | 5.3 (≈ 1.35 µg/mL) | 21.1
O=c1[nH]c2ccc(O)cc2c(O)c1-c1ccccc1 | 10.4 (≈ 2.63 µg/mL) | 15.4
COc1ccc2[nH]c(=O)c(-c3ccccc3)c(O)c2c1 | 9.3 (≈ 2.49 µg/mL) | 8.7
O=c1[nH]c2ccccc2c(O)c1-c1ccccc1 | – | 11.4
Cc1ccc2[nH]c(=O)c(-c3ccccc3)c(O)c2c1 | 8.7 (≈ 2.19 µg/mL) | > 16
COc1cccc2c(O)c(-c3ccccc3)c(O)nc12 | 8.6 (≈ 2.3 µg/mL) | 13.2
CC(=O)Oc1c(-c2ccccc2)c(=O)[nH]c2ccc(F)cc12 | 4.7 (≈ 1.4 µg/mL) | 23.3
O=c1[nH]c2cc(O)ccc2c(O)c1-c1ccccc1 | 11.5 (≈ 2.91 µg/mL) | 11.2
Oc1nc2ccccc2c(O)c1-c1ccccc1 | 7.2 (≈ 1.71 µg/mL) | –
O=c1c(-c2ccccc2)c(O)c2ccccc2n1-c1ccccc1 | 7.8 (≈ 2.44 µg/mL) | > 20
NNC(=O)c1ccncc1 [ISONIAZID] | < 0.1 | –
Cc1cc2[nH]c(=O)c(-c3ccccc3)c(O)c2cc1C | 13.2 (≈ 3.5 µg/mL) | 6.7

Converted amounts (≈) assume the structure as drawn.
